{"source": "ChEMBL document CHEMBL3098120", "about": "“Synthesis and analysis of activity of a potential anti-melanoma prodrug with a hydrazine linker” (Eur J Med Chem, 2014)", "test_system": "B16-F10", "test": "Antitumor activity against mouse B16F10 cells […] in C57BL/6 mouse assessed as reduction of tumor size at 100 ug administered as intratumorally for 3 days", "assay_type": "functional, cell-based", "note": "Calls of active or inactive are those of the source. No cut-off for these calls is given here."}
{"smiles": "O=C(O)c1ccc(N(CCCl)CCCl)cc1", "values": [{"measurement": "Activity", "result": "Active"}]}
